Reference: PubChem BioAssay AID504761 (Drosophila RNAi Screening Center, 2011)
The screen tested about 22,000 reagents; below is an unselected part of those that have a named target and a result. Of all reagents, 116 (0.52%) are marked active. 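Calls depend on retest data that are not deposited; infection was ranked per plate without normalising between plates; the unit of the infection score is not given.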 Raw values vary from plate to plate and are shown uncorrected. Entries without a mark were called inactive. A plus sign joins genes that one reagent is predicted to hit. Further read-outs or replicates are left out here. The record does not give: the amount of reagent, the time to read-out.

Aim: 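Insect host genes that dengue virus relies on to spread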 (primary screen)
Cells: D.Mel-2 cells from Drosophila
Reagents: long dsRNA against Drosophila genes
Conditions: infection with dengue virus type 2; dose and infection time not stated
Read-out: 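Per well on two replicate plates, imaging gave the percent of cells positive for viral envelope protein, ranked by infection, and a nuclear count of cells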
Scale: infection score: higher = more virus-infected cells; cell count: higher = more cells in the well
Active means: 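Low infection ranks in the two replicates (chance level up to 0.065) followed by a retest with a 1.5-fold or larger significant decrease, p below 0.05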
Meaning of the calls: active = confirmed: knock-down lowers infection; inactive = not picked or not confirmed

gene | amplicon | infection score, replicate 1 | infection score, replicate 2 | cell count, replicate 1
Lkr | DRSC09754 | 4.51 | 18.8 | 5626
Menl-2 + Menl-1 | DRSC07469 | 41.5 | 22.1 | 5333
Menl-2 + Menl-1 | DRSC07470 | 19 | 5.64 | 5500
Menl-2 + Menl-1 | DRSC29015 | – | 16.6 | 416
GstT3 | DRSC20541 | 7.39 | 1.42 | 3966
CG4950 | DRSC10463 | 0.93 | 0.75 | 5782
CG1309 | DRSC08302 | 13.7 | 10.3 | 3686
roq | DRSC10227 | 1.38 | 5.05 | 6789
Polr2A | DRSC20280 | 30.8 | 4.86 | 4437
Polr2A | DRSC27157 | 46.9 | 40 | 4480
Mal-A3 | DRSC07462 | 6.64 | 7.54 | 6128
Mal-A3 | DRSC28752 | 15.2 | 24.4 | 3482
CG10352 | DRSC19353 | 0.83 | 2.87 | 6303
trh | DRSC08355 | 5.42 | 1.06 | 5669
trh | DRSC08739 | 2.72 | 12.1 | 5802
trh | DRSC30093 | 4.5 | 12.7 | 6162
PK2-R2 | DRSC16448 | 2.78 | 8.94 | 6617
PK2-R2 | DRSC25536 | 9.24 | 11 | 5933
red | DRSC23177 | 0.68 | 12.3 | 5173
Brr2 | DRSC10559 | 12.2 | 27.8 | 1429
Tip60 | DRSC18661 | 6.19 | 7.74 | 5900
CG8642 | DRSC07228 | 6.38 | 16.4 | 6831
RpL29 | DRSC04650 | 4.08 | 3.48 | 6425
Cys | DRSC16637 | 5.98 | 9.09 | 6351
Cys | DRSC27796 | 10.6 | 9.23 | 6758
CG14684 | DRSC14907 | 3.6 | 7.6 | 5857
Mst36Fb | DRSC28786 | 19.4 | 5.03 | 2067
insv | DRSC00579 | 7.39 | 6.29 | 6748
insv | DRSC28219 | 5.93 | 2.98 | 2647
CG32751 | DRSC21770 | 15.9 | 1.97 | 4515
ATPsynCF6 | DRSC14092 | 3.31 | 8.76 | 6441
yellow-f | DRSC15348 | 4.87 | 3.3 | 6056
yellow-f | DRSC27151 | 10.2 | 11 | 6641
sand | DRSC07245 | 12.2 | 7.54 | 5636
CG7011 | DRSC09347 | 2.59 | 5.82 | 5493
CG7011 | DRSC28334 | – | 6.05 | 361
CG13288 | DRSC09962 | 3.86 | 7.97 | 6223
CG17648 | DRSC00508 | 3.82 | 5.88 | 6365
CG7656 | DRSC10900 | 19.9 | 6.06 | 5066

As entered above:
Under “infection score, replicate 2”, yellow-f [DRSC15348] reads 3.3
Entry of CG7011 [DRSC28334] under “infection score, replicate 2”: 6.05
For “cell count, replicate 1”, Menl-2 + Menl-1 [DRSC07470] is entered as 5500
ATPsynCF6 [DRSC14092], infection score, replicate 1: 3.31
Under “infection score, replicate 1”, CG14684 [DRSC14907] is entered as 3.6
Entry for Menl-2 + Menl-1 [DRSC07469] under “cell count, replicate 1”: 5333

Continued.
gene | amplicon | infection score, replicate 1 | infection score, replicate 2 | cell count, replicate 1
CG2577 | DRSC19863 | 8.19 | 2.81 | 5357
CG2577 | DRSC23309 | 3.61 | 8.55 | 6037
CG2577 | DRSC26322 | 7.61 | 1.49 | 6501
Sema5c | DRSC11279 | 2.62 | 1.79 | 5448
Sema5c | DRSC26621 | 4.74 | 6.49 | 6433
CG13876 | DRSC08346 | 4.23 | 6.04 | 6285
Cyp313a2 | DRSC16625 | 5.39 | 6.32 | 6937
Pex19 | DRSC02839 | 14.3 | 11.1 | 6473
peb | DRSC23057 | 0.28 | 2.74 | 6099
peb | DRSC26695 | 2.23 | 4.06 | 6286
Pal1 | DRSC06106 | 2.99 | 7.59 | 5687
msps | DRSC17004 | 2.4 | 7.59 | 5420
EbpIII | DRSC04638 | 4.35 | 0.62 | 1103
unc-104 | DRSC07710 | 4.18 | 8.53 | 6460
CG9175 | DRSC03153 | 5.03 | 0.69 | 6066
CG33290 | DRSC11493 | 3.48 | 1.04 | 6033
CG33290 | DRSC27148 | 9.77 | 5.01 | 6276
CG2209 | DRSC19843 | 2.14 | 7.23 | 5790
lncRNA:CR32385 | DRSC22966 | 1.75 | 4.37 | 6241
CG12860 | DRSC06200 | 9.72 | 16.7 | 6841
CG12860 | DRSC26264 | 8.15 | 2.38 | 6310
bai | DRSC14388 | 0.43 | 5.65 | 6286
ste24c + CG30461 | DRSC05639 | 4.73 | 6.01 | 6391
ste24c + CG30461 | DRSC07316 | 16.3 | 5.52 | 6187
Gpo1 | DRSC07128 | 11.7 | 7.7 | 6207
CG14419 | DRSC17916 | – | 5.18 | 372
CG14419 | DRSC27046 | 4.06 | 4.18 | 6361
CG8611 | DRSC19340 | 3.19 | 0.7 | 6673
CG8611 | DRSC24619 | 4.2 | 9.27 | 6138
Caf1-180 | DRSC17807 | 1.53 | 1.07 | 5754
Caf1-180 | DRSC24150 | 2.13 | 6.1 | 5076
CG15254 | DRSC01870 | 8.81 | 13 | 5268
CG15254 | DRSC21765 | 5.45 | 5.52 | 6638
CG15254 | DRSC29568 | 12.3 | 3.01 | 5499
mtSSB | DRSC17005 | 5.38 | 8.61 | 5534
